HELM strings list residues between dots; [ac] is acetyl, [am] amide, other brackets name non-standard units.
test: general procedure: solution-phase peptide synthesis; BOP; settings: coupling step

Row | Substance | step yield [%]
1 | Ac-Val-Pheψ[CH₂NH]Leu-Glu(OBzl)-Ile-NH₂ | 52
2 | Boc-Val-ACHPA-Leu-Phe-NH₂ | 84
3 | PEPTIDE1{[S-glyceroyl].V.[ACHPA].L.F.[am]}$$$$V2.0 | 42
4 | (4-BzlOPh)CH₂CH₂C(O)-Val-ACHPA-Leu-PheNH₂ | 77

same assay, conditions: late stage modification step

Row | Substance | step yield [%]
5 | [4-(HOC(O)CH₂O)Ph]CH₂CH₂C(O)-Val-ACHPA-Leu-Phe-NH₂ | 81
6 | PEPTIDE1{[BzlOCOCH2OPhCH2CH2CO].V.[ACHPA].L.F.[am]}$$$$V2.0 | 30
7 | (4-HOPh)CH₂CH₂CO-Val-ACHPA-Leu-Phe-NH₂ | 61
8 | PEPTIDE1{[ac].V.[PhepsiCH2NHLeu].E.I.[am]}$$$$V2.0 | 96
